According to publication PMC4371151:
Where two headings read alike, the source gives them in different places.

The chains behind the UniProt entries cited, without tags or fusion partners. Where a name states a change or a piece, a line headed by the entry shows the natural chain unless it says otherwise.
UniProt P9WHN5: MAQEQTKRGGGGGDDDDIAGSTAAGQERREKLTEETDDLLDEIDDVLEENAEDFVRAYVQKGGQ

How the values were obtained:
Conditions in all cases: designed binder
[1] = biological target: Pup (prokaryotic ubiquitin-like protein), bacterially expressed and purified (Mycobacterium tuberculosis) (UniProt P9WHN5)
[2] = biological target: Pup (prokaryotic ubiquitin-like protein), bacterially expressed and purified (Mycobacterium tuberculosis) (UniProt P9WHN5); remark: listed apart in the source
[3] = biological target: Pup (prokaryotic ubiquitin-like protein), bacterially expressed and purified (Mycobacterium tuberculosis) (UniProt P9WHN5); remark: listed apart in the source

## Peptide aptamer PA-1, expressed from pBAD-PA (from UniProt P0AA25 1-109)
[1]
  Kd: 22 nM

## Peptide aptamer PA-3, expressed from pBAD-PA (from UniProt P0AA25 1-109)
[2]
  Kd: 30 nM

## Peptide aptamer PA-7, expressed from pBAD-PA (from UniProt P0AA25 1-109)
[3]
  Kd: 120 nM
